A mixed list of measured activities; the numbers were collected in NIAID ChemDB.

All rows: growth or infection tests; agent: HIV-1

ECn: concentration that inhibits the pathogen or its effect by n%. Conditions beyond the fields shown may differ between rows. An empty or dashed field is not shown. Two numbers with a dash give a range or band.

compound | cells | measure | strain | read by | mutations | result
O=C(c1ccccc1)N(CCc1ccccc1)C[C@H](O)CN(CC1CCCC1)S(=O)(=O)c1nc2ccccc2o1 | CEM | EC90 | IIIB | p24 | - | 1 µM
CC(C)CN(C[C@@H](O)[C@H](Cc1ccccc1)NC(=O)OC1CCOC1)S(=O)(=O)c1ccc(O)cc1 | CEM | EC90 | IIIB | p24 | - | ≤0.1 µM
CCC(=O)c1ccc(F)c([C@@H]2C[C@@H]2NC(=O)Nc2ccc(C#N)cn2)c1O | TZM-bl | EC50 | LAI | β-galactosidase / luminescence | NNRTI-resistant (RT H221Y) | 0.00091 µM
COCCOc1cc(Cl)ccc1CNC[C@H](O)[C@@]12CC[C@]3(C)[C@H](CC[C@@H]4[C@@]5(C)CC[C@H](OC(=O)[C@H]6C[C@@H](C(=O)O)C6(C)C)C(C)(C)[C@@H]5CC[C@]43C)C1=C(C(C)C)C(=O)C2 | MT-2 | EC50 | 92HT599 | p24 / ELISA | - | <1 µM
CC1=C(C(=O)Nc2cc(C(=O)OC(C)C)c(C)cc2F)SCCO1 | CEM | EC50 | Nevirapine-resistant (RT V106A) | syncytia | RT-V106A | >10 µg/mL
Cc1ccc(S(=O)(=O)Nc2cccc3c(C(=O)C(=O)N4CCN(C(=O)c5ccccc5)C[C@H]4C)cn(S(=O)(=O)c4ccc(C)cc4)c23)cc1 | HeLa | EC50 | - | luciferase / reporter gene | - | <1 µM
Nc1ccc(S(=O)(=O)N(CC2CCCC2)C[C@@H](O)[C@H](Cc2ccccc2)NC(=O)O[C@@H]2CCOC2)c(N)c1 | CEM | EC90 | IIIB | p24 | - | ≤0.1 µM
CCC(C)[C@@H](C(=O)N[C@@H](Cc1ccccc1)[C@H](O)CN(CC(C)C)S(=O)(=O)c1ccc(/C=N/O)cc1)N1CC(=O)N(Cc2ccccn2)C1=O | MT-4 | EC50 | - | cytopathic effect / MTT | - | 0.003 µM
C=CCOC(=O)N[C@@H](Cc1ccccc1)[C@H](O)CN(CC(C)C)S(=O)(=O)c1ccc(Cl)c(Cl)c1 | CEM | EC50 | IIIB | p24 | - | <10 µM
CCOC(=O)c1cc(NC(=O)C2=C(C)OCCS2)ccc1Cl | CEM | EC50 | TIBO-resistant (RT L100I) | syncytia | RT-L100I | 7.5 µg/mL
CCCN(CC(=O)c1ccccc1)C[C@H](O)CN(CC1CCCC1)S(=O)(=O)c1ccc(OC)cc1 | CEM | EC50 | IIIB | p24 | - | <1 µM
CC1(C)CC=C(c2cn(-c3nccc(C(=O)NC4CCC(N5CC6CCC(C5)O6)CC4)n3)c3ccc(F)c([C@H](OC(C)(C)C)C(=O)O)c23)CC1 | MT-4 | EC50 | NL4-3 | luminescence | Q148K | 0.004 µM
CCC(C)[C@@H](C(=O)N[C@@H](Cc1ccccc1)[C@H](O)CN(CC(C)C)S(=O)(=O)c1ccc(/C=N/O)cc1)N1CC(=O)N(Cc2ccncc2)C1=O | MT-4 | EC50 | A17 (LPV-resistant) | cytopathic effect / MTT | PR-L10F V32I M46I I47V Q68E I84V | 0.001 µM
CC(C)C1=C2[C@H]3CC[C@@H]4[C@@]5(C)CC[C@H](OC(=O)[C@H]6C[C@@H](C(=O)O)C6(C)C)C(C)(C)[C@@H]5CC[C@@]4(C)[C@]3(C)CC[C@@]2(CCNCC(C)(C)NC(=O)c2ccc(N3CCN(C)CC3)cc2)CC1=O | MT-2 | EC50 | 92HT599 | p24 / ELISA | - | <1 µM
CC(=O)Nc1nc(C)c(S(=O)(=O)N(CC2CCCC2)C[C@@H](O)CN(CCc2ccccc2)C(=O)c2ccccc2)s1 | CEM | EC50 | IIIB | p24 | - | <1 µM
COCC1=C(C(=O)Nc2ccc(Cl)c(C(=O)OC(C)C)c2)SCCO1 | CEM | EC50 | TSAO-resistant (RT E138K) | syncytia | RT-E138K | 3.5 µg/mL
O=C(N[C@@H](Cc1ccccc1)[C@H](O)CN(CC1CCCC1)S(=O)(=O)c1ccc(F)cc1)O[C@@H]1CCOC1 | CEM | EC90 | IIIB | p24 | - | 0.101–1 µM
Nc1nccc2c1ncn2[C@@H]1O[C@H](CO)[C@@H](O)[C@H]1O | PBMC | EC50 | 18601 unpaired | p24 | - | 0.254 µM
CCCOC(=O)c1cc(NC(=O)C2=C(C)OCCS2)ccc1Cl | CEM | EC50 | IIIB | syncytia | - | 0.02 µg/mL
Nc1nc(NC2CC2)c2ncn([C@H]3CO[C@@H](CO)O3)c2n1 | MT-4 | EC50 | RF | RT activity | - | 6.7 µM
NC(=O)C[C@H](NC(=O)c1ccc2ccccc2n1)C(=O)N[C@@H](Cc1ccccc1)[C@H](O)CN(Cc1ccccc1)S(=O)(=O)c1cccc(C(=O)O)c1 | CEM | EC50 | IIIB | p24 | - | <40 µM
COC(=O)c1ccccc1NC(=O)Nc1cccc2c(C(=O)C(=O)N3CCN(C(=O)c4ccccc4)C[C@H]3C)c[nH]c12 | HeLa | EC50 | - | luciferase / reporter gene | - | <1 µM
CC(C)CN(C[C@@H](O)[C@H](Cc1ccccc1)NC(=O)OCc1ccccc1)S(=O)(=O)c1ccc(N)c([N+](=O)[O-])c1 | CEM | EC50 | IIIB | p24 | - | <10 µM
N#CC(=C1CCN(C(=O)C(=O)c2c[nH]c3c(NC(=O)Nc4ccccc4C(=O)O)cccc23)CC1)c1ccccc1 | HeLa | EC50 | - | luciferase / reporter gene | - | <1 µM
Cc1cc2c(C)ccc(-n3c(C)nnc3SCC(=O)Nc3ccccc3Br)c2cc1C | HeLa + HeLa-JC53 | EC50 | NL4-3 | luciferase | RT-Y188L | 0.11 µM
Cc1cc(C(=O)NC[C@H](O)[C@@]23CC[C@]4(C)[C@H](CC[C@@H]5[C@@]6(C)CC[C@H](OC(=O)[C@H]7C[C@@H](C(=O)O)C7(C)C)C(C)(C)[C@@H]6CC[C@]54C)C2=C(C(C)C)C(=O)C3)n[nH]1 | MT-2 | EC50 | 92HT599 | p24 / ELISA | - | <1 µM
CN1CCN(C(=O)c2ccc3c(=O)c4ccccc4[nH]c3c2)CC1 | CEM | EC50 | TSAO-resistant (RT E138K) | syncytia | RT-E138K | 0.5 µg/mL
[N-]=[N+]=NC[C@H]1[C@H](n2cnc3c(N)ncnc32)O[C@@H]1CO | PBMC | EC50 | RF | RT activity | - | 0.07 µM
COc1ccc(S(=O)(=O)N(CC(C)C)C[C@@H](O)[C@H](Cc2ccccc2)NC(=O)[C@H](C(C)C)N2CC(=O)N(Cc3csc(C)n3)C2=O)cc1 | MT-4 | EC50 | - | cytopathic effect / MTT | - | 0.005 µM
Cc1nc2ccccc2c(-c2cc(F)c3c(c2C)CCCO3)c1[C@H](OC(C)(C)C)C(=O)O | MT-4 | EC50 | NL4-3 | luminescence | N222K | 0.039 µM
COc1ccc(S(=O)(=O)N(CC(C)C)C[C@@H](O)CCN(CC(C)C)S(=O)(=O)N(C)C)cc1 | CEM | EC90 | IIIB | p24 | - | 1 µM
Cc1ccc(NC(=O)CSc2nnc(C)n2-c2ccc(C(F)(F)F)cc2)c(Cl)c1 | HeLa + HeLa-JC53 | EC50 | NL4-3 | luciferase | RT-K103N Y181C | 0.23 µM
COC(=O)Oc1ccc(NC(=O)C2=C(C)OCCS2)cc1C(=O)OC(C)C | CEM | EC50 | TSAO-resistant (RT E138K) | syncytia | RT-E138K | >10 µg/mL
Nc1ncnc2c1ncn2[C@@H]1C=C(CO)[C@@H](O)[C@H]1O | PBMC | EC50 | A012 POST-AZT | p24 | - | 0.0028 µM
CC(=O)Nc1cccc(S(=O)(=O)N(CC(C)C)C[C@@H](O)[C@H](Cc2ccccc2)NC(=O)OC2CCOC2)c1 | CEM | EC50 | IIIB | p24 | - | <1 µM
CCN1CCN(CC(=O)NC[C@H](O)[C@@]23CC[C@]4(C)[C@H](CC[C@@H]5[C@@]6(C)CC[C@H](OC(=O)[C@H]7C[C@@H](C(=O)O)C7(C)C)C(C)(C)[C@@H]6CC[C@]54C)C2=C(C(C)C)C(=O)C3)CC1 | MT-2 | EC50 | 92HT599 | p24 / ELISA | - | <1 µM
Cc1ccc2cccc(-n3c(SCC(=O)Nc4ccc(S(N)(=O)=O)cc4Cl)nnc3C(F)(F)F)c2n1 | HeLa + HeLa-JC53 | EC50 | NL4-3 | luciferase | RT-Y188L | 0.022 µM
CC(C)[C@H](NC(=O)OCc1ccccn1)C(=O)N[C@@H](Cc1ccccc1)[C@@H](O)C[C@H](Cc1ccccc1)NC(=O)OCc1cccnc1 | MT-4 | EC95 | NL4-3 | p24 | PR-L63P V82T I84V | 3 µM
CC(C)C1=C2[C@H]3CC[C@@H]4[C@@]5(C)CC[C@H](OC(=O)[C@H]6C[C@@H](C(=O)O)C6(C)C)C(C)(C)[C@@H]5CC[C@@]4(C)[C@]3(C)CC[C@@]2(CCNC(=O)c2cccnc2N2CCOCC2)CC1=O | MT-2 | EC50 | 92HT599 | p24 / ELISA | - | <1 µM
Cc1ccc2cccc(-n3c(C)nnc3SCC(=O)Nc3ccc(S(N)(=O)=O)cc3Cl)c2n1 | HeLa + HeLa-JC53 | EC50 | NL4-3 | luciferase | RT-Y188L | 0.39 µM
CCC1=C(C(=O)Nc2ccc(Cl)c(C(=O)OC(C)C)c2)SCCO1 | CEM | EC50 | TSAO-resistant (RT E138K) | syncytia | RT-E138K | 0.6 µg/mL
Cc1ccc(-n2c(SCC(=O)Nc3ccc(S(N)(=O)=O)cc3Cl)nnc2C(F)(F)F)c2ccccc12 | HeLa + HeLa-JC53 | EC50 | NL4-3 | luciferase | RT-Y188L | 0.025 µM
CC(C)C1=C2[C@H]3CC[C@@H]4[C@@]5(C)CC[C@H](OC(=O)[C@H]6C[C@@H](C(=O)O)C6(C)C)C(C)(C)[C@@H]5CC[C@@]4(C)[C@]3(C)CC[C@@]2([C@@H](O)CNC(=O)C(C)(C)NC(=O)c2ccc3ccccc3n2)CC1=O | MT-2 | EC50 | 92HT599 | p24 / ELISA | - | <1 µM
CCC(C)[C@@H](C(=O)N[C@@H](Cc1ccccc1)[C@H](O)CN(CC(C)C)S(=O)(=O)c1ccc(/C=N/O)cc1)N1CCN(Cc2cnccc2C)C1=O | MT-4 | EC50 | - | cytopathic effect / MTT | - | 0.006 µM
O=C(N[C@@H](Cc1ccccc1)C(=O)C(F)(F)N(Cc1ccccc1)S(=O)(=O)c1ccccc1)O[C@H]1CCOC1 | CEM | EC90 | IIIB | p24 | - | 1 µM
O=C(O)c1cc(-n2cccc2)ccc1Cl | PBMC + MT-2 | EC50 | 93TH051 X4R5 CLADE E | p24 | - | 23.6 µM
C[C@@H]1CN(C(=O)c2ccccc2)CCN1C(=O)C(=O)c1c[nH]c2c(N3CCN(CCN(C)C)C3=O)cccc12 | HeLa | EC50 | - | luciferase / reporter gene | - | <1 µM
Cc1cc2cccc(C)c2c(-n2c(C)nnc2SCC(=O)Nc2ccccc2Br)c1C | HeLa + HeLa-JC53 | EC50 | NL4-3 | luciferase | RT-Y188L | 0.2 µM
CC1=C(C(=O)Nc2ccc(Cl)c(C(=O)OC(C)C)c2)SCCO1 | CEM | EC50 | TIBO-resistant (RT L100I) | syncytia | RT-L100I | >40 µg/mL
CCc1nnc(SCC(=O)Nc2ccc(C)cc2Br)n1-c1ccc(C)cc1 | HeLa + HeLa-JC53 | EC50 | NL4-3 | luciferase | RT-K103N Y181C | 2.5 µM
CC1=C(C(=O)Nc2ccc(Cl)c(C(=O)OCC3CCC3)c2)SCCO1 | CEM | EC50 | Nevirapine-resistant (RT V106A) | syncytia | RT-V106A | 4 µg/mL
COc1ccc(S(=O)(=O)N(CC(C)C)C[C@@H](O)CCN(CC2CCCC2)S(=O)(=O)Cc2cncs2)cc1 | CEM | EC90 | IIIB | p24 | - | 1 µM
CCC(C)[C@@H](C(=O)N[C@@H](Cc1ccccc1)[C@H](O)CN(CC1CCCC1)S(=O)(=O)c1ccc(/C=N/O)cc1)N1CCN(Cc2cccnc2)C1=O | MT-4 | EC50 | A17 (LPV-resistant) | cytopathic effect / MTT | PR-L10F V32I M46I I47V Q68E I84V | 0.001 µM

The last 8 rows once more:

O=C(O)c1cc(-n2cccc2)ccc1Cl ; cells: PBMC + MT-2 ; measure: EC50 ; strain: 93TH051 X4R5 CLADE E ; read by: p24 ; result: 23.6 µM
C[C@@H]1CN(C(=O)c2ccccc2)CCN1C(=O)C(=O)c1c[nH]c2c(N3CCN(CCN(C)C)C3=O)cccc12 ; cells: HeLa ; measure: EC50 ; read by: luciferase / reporter gene ; result: <1 µM
Cc1cc2cccc(C)c2c(-n2c(C)nnc2SCC(=O)Nc2ccccc2Br)c1C ; cells: HeLa + HeLa-JC53 ; measure: EC50 ; strain: NL4-3 ; read by: luciferase ; mutations: RT-Y188L ; result: 0.2 µM
CC1=C(C(=O)Nc2ccc(Cl)c(C(=O)OC(C)C)c2)SCCO1 ; cells: CEM ; measure: EC50 ; strain: TIBO-resistant (RT L100I) ; read by: syncytia ; mutations: RT-L100I ; result: >40 µg/mL
CCc1nnc(SCC(=O)Nc2ccc(C)cc2Br)n1-c1ccc(C)cc1 ; cells: HeLa + HeLa-JC53 ; measure: EC50 ; strain: NL4-3 ; read by: luciferase ; mutations: RT-K103N Y181C ; result: 2.5 µM
CC1=C(C(=O)Nc2ccc(Cl)c(C(=O)OCC3CCC3)c2)SCCO1 ; cells: CEM ; measure: EC50 ; strain: Nevirapine-resistant (RT V106A) ; read by: syncytia ; mutations: RT-V106A ; result: 4 µg/mL
COc1ccc(S(=O)(=O)N(CC(C)C)C[C@@H](O)CCN(CC2CCCC2)S(=O)(=O)Cc2cncs2)cc1 ; cells: CEM ; measure: EC90 ; strain: IIIB ; read by: p24 ; result: 1 µM
CCC(C)[C@@H](C(=O)N[C@@H](Cc1ccccc1)[C@H](O)CN(CC1CCCC1)S(=O)(=O)c1ccc(/C=N/O)cc1)N1CCN(Cc2cccnc2)C1=O ; cells: MT-4 ; measure: EC50 ; strain: A17 (LPV-resistant) ; read by: cytopathic effect / MTT ; mutations: PR-L10F V32I M46I I47V Q68E I84V ; result: 0.001 µM